The list shows a part of the results, in another mix than the full data. Calls of active or inactive are those of the source. Cut-off read from the data, not from the text of the source: active = inhibition above about 10% (passing the limit was not always enough); inconclusive = no clear call, values can overlap the other calls.

The chains behind the UniProt entries cited, without tags or fusion partners.
UniProt P9WIQ1, whole entry: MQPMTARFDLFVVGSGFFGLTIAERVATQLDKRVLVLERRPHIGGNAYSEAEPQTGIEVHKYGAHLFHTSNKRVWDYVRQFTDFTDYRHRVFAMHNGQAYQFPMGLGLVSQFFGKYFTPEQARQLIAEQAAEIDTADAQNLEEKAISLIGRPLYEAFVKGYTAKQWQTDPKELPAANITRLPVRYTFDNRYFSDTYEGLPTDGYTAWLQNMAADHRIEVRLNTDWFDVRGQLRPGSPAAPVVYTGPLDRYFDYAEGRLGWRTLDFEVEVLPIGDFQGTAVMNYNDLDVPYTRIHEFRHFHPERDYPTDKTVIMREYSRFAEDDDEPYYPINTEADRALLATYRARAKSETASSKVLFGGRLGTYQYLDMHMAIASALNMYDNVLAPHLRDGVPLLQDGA

The target of the assay is UDP-galactopyranose mutase (Mycobacterium tuberculosis (strain ATCC 25618 / H37Rv)) (UniProt P9WIQ1). The assay can be described thus: blockers of Mtb UDP-galactopyranose mutase – biochemical, fluorescence polarization, single point, primary screen (AID 504406). The following applies: purified UGM, fluorescence polarization probe displacement; at 10 µM; stronger effect = higher value.
Usually inhibition stands for the drop in the measured response relative to a control, in per cent. As for `COc1ccc(OP(C)(=O)Nc2cccc(F)c2)cc1` (centres undefined), the inhibition is inactive: 0.896%.
As for `COc1ccccc1OP(C)(=O)Nc1cc(Cl)ccc1C` (centres undefined), the inhibition was inactive: -1.52%.
On to `Cc1cc(C)cc(OP(C)(N)=O)c1` (centres undefined), for which the inhibition was inactive: 3.53%.
For the molecule `CCOC(=O)c1ccc(NP(C)(=O)Oc2ccccc2)cc1` (centres undefined), the inhibition is inactive: 1.41%.
With `Cc1ccc(NP(C)(=O)Oc2ccccc2)c(C)c1` (centres undefined) the figure was inactive: 5.67%.
With `COc1ccccc1OP(C)(=O)Nc1ccc(C)cc1` (centres undefined) the figure was inactive: 0.123%.
`O=C(O)c1cccc(Nc2c([N+](=O)[O-])cc([N+](=O)[O-])cc2[N+](=O)[O-])c1`: the inhibition was inactive: 2.25%.
To `CC1=NCCc2c1[nH]c1ccccc21.O=[N+]([O-])c1cc([N+](=O)[O-])c(O)c([N+](=O)[O-])c1` belongs inactive: 7.68%; to `Cc1cc(C)cc(OP(C)(=O)Nc2ccc(C)cc2C)c1` (centres undefined), inactive: 0.515%.
With `CCOC(=O)c1ccc(NP(C)(=O)Oc2cc(C)cc(C)c2)cc1` (centres undefined) the figure was inactive: 6.08%; with `COc1ccccc1OP(C)(=O)Nc1cccc(Br)c1` (centres undefined), inactive: 0.0855%.
With `Cc1cc(C)cc(OP(C)(=O)Nc2ccccn2)c1` (centres undefined) the figure was inactive: -1.9%; with `CP(=O)(Nc1cccc(Br)c1)Oc1ccccc1` (centres undefined), inactive: 6.12%.
As to `Cc1ccc(C)c(NP(C)(=O)Oc2ccccc2)c1` (centres undefined), the inhibition is inactive: -1.87%.
To `O=[N+]([O-])c1cc([N+](=O)[O-])c(-n2nnc3ccccc32)c([N+](=O)[O-])c1` belongs inactive: 1.19%; to `Cc1nc2ccc3ccccc3c2s1.O=[N+]([O-])c1cc([N+](=O)[O-])c(O)c([N+](=O)[O-])c1`, inactive: 0.616%.
With `O=[N+]([O-])c1cc([N+](=O)[O-])c(-c2cnn(-c3ccccc3)c2)c([N+](=O)[O-])c1` the figure was inactive: -2.48%; with `CCOC(=O)C(CC)C1=NC(C)(C)Cc2ccccc21.O=[N+]([O-])c1cc([N+](=O)[O-])c(O)c([N+](=O)[O-])c1` (centres undefined), inactive: 1.21%; with `CC1=C2N=C(C=C3N=C(C(C)=C4[N-][C@@](C)([C@@H]5N=C1[C@](C)(CCC(=O)NC[C@@H](C)OP(=O)([O-])O[C@H]1[C@@H](O)[C@@H](n6cnc7cc(C)c(C)cc76)O[C@@H]1CO)[C@H]5CC(N)=O)[C@@](C)(CC(N)=O)[C@@H]4CCC(N)=O)[C@@](C)(CC(N)=O)[C@@H]3CCC(N)=O)C(C)(C)[C@@H]2CCC(N)=O.[C-]#N.[Co+3]`, inactive: 1.89%.
With `O=[N+]([O-])c1cc([N+](=O)[O-])c(Nc2nnnn2CCO)c([N+](=O)[O-])c1` the figure was inactive: -0.193%; with `CCCOc1ccc(NP(C)(=O)Oc2ccc(Cl)cc2)cc1` (centres undefined), inactive: 1.68%; with `CP(=O)(Nc1ccc(SC(F)(F)F)cc1)Oc1ccccc1` (centres undefined), inactive: 0.249%.
For `CN1CCCCC1COC(=O)C1(O)c2ccccc2CCc2ccccc21` (centres undefined), the inhibition was inactive: -3.95%.
To `COc1ccccc1OP(C)(=O)Nc1c(C)cccc1C` (centres undefined) belongs inactive: -1.39%.

The values above are taken from PubChem BioAssay AID504406 (Broad Institute, 2011).
